The target of test [1] is T1, SARS-CoV-2 Spike (S) protein, wild type, full length (SARS-CoV-2, UniProt P0DTC2 14-1273). The experiment in a line: flow cytometry, CHO cells expressing full-length Spike. In general terms: A flow cytometer gives signals particle by particle.
For test [2], the target named is T1, SARS-CoV-2 Spike (S) protein, wild …. Described as above. The source holds these as a separate data set.
The target of test [3] is T2, SARS-CoV-2 Spike (S) protein, wild type, full length (SARS-CoV-2, UniProt P0DTC2 14-1208). The experiment in a line: bead assay, flow cytometry.
Test [4] addresses T2, SARS-CoV-2 Spike (S) protein, wild …. Kind of test: bead assay, flow cytometry. The source holds these as a separate data set.
The target is the same in test [5]. The experiment in a line: bead assay, flow cytometry. The source holds these as a separate data set.
The target of test [6] is WIV1 full length Spike (WIV1). The experiment in a line: multiplexed bead assay, flow cytometry, antibody at […].

Numbering of substitutions follows the chain as printed. Like-named read-outs stand apart in the source and are kept apart here.

B1: antibody 525 (antibody, V domains shown)
VH: QVQLVESGGGVVQPGRSLRLSCAASGFTFSSYAMHWVRQAPGKGLEWVTVISYNGRNKYYADSVKGRFTISRDNSKNTLYLQMNSLRAEDTAVYWCAREGLGAIVVGLDYWGQGTLVIVSS
VL: not shown
In the case of B1, the “median fluorescence, fold over isotype control” value (“median fluorescence, fold” below) turned out to be 8.7 fold over isotype in test [1] and 7.47 fold over isotype in test [2].

B2: antibody 515 (antibody, V domains shown)
VH: EVQLVESGGGLVKPGGSLRLSCAASGFTFSSYSMNWVRQAPGKGLEWVSSISSSSSYIYYADSVKGRFTISRDNAKNSLYLQMNSLRAEDTAVYYCASIAAAGTLYYYYGMDVWGQGTTVTVSS
VL: not shown
On to B2, for which the “median fluorescence, fold” value was 10.4 fold over isotype in test [1] and 3.93 fold over isotype in test [2].

B3: antibody 274 (antibody, V domains shown)
VH: QVQLVESGGGVVQPGRSLRLSCAASGFTFSSYAMHWVRQAPGKGLEWVAVISYDGSNKYYADSVKGRFTISRDNSKNTLYLQMNSLRAEDTAVYYCARDSESDSSGWLHYFDYWGQGTLVTVSS
VL: not shown
For the molecule B3, the “bead binding signal (fold over isotype)” value turned out to be 944 fold over isotype in test [3], 127 fold over isotype in test [4] and 393 fold over isotype in test [5].

B4: antibody 501 (antibody, V domains shown)
VH: QVQLVQSGAEVKKPGASVKVSCKASGYTFTSYYVHWVRQAPGQSLEWMGVISPSTGSTTYAQNFQGRVTMTRDTSTTTVYMELSSLRSEDTAVYYCARDDYYDSTRYFDLWGRGTLVTVSS
VL: QSALTQPASVSGSPGQSISFSCTGTSSDIGAYNYVSWYQQHPGRAPKLMIYDVGNRPSGVSNRFSGSKSGNTASLTISGLQAEDEADYYCSSYTSSSTQVFGTGTKVTVL
On to B4, for which the figures for the “median fluorescence, fold” value in test [1] and in test [2] were 32.4 fold over isotype and 4.87 fold over isotype, respectively.

B5: antibody 513 (antibody, V domains shown)
VH: QVQLVESGGGVVQPGRSLRLSCAASGFTFSSYAMHWVRQAPGKGLEWVAVISYDGSNKYYADSVKGRFTISRDNSKNTLYLQMNSLRAEDTAVYYCARAGSGSYYNWFDPWGQGTLVTVSS
VL: QSALTQPASVSGSPGQSITISCTGTSSDVGGYNYVSWYQQHPGKAPKLMIYEVSNRPSGVSNRFSGSKSGNTASLTISGLQAEDEADYYCSSYTSSSTPYVFGTGTKVTVL
On to B5, for which the “median fluorescence, fold” value in test [1] is 8.42 fold over isotype; in test [2], 7.37 fold over isotype.

B6: antibody 520 (antibody, V domains shown)
VH: QVQLVESGGGVVQPGRSLRLSCAASGFTFSSYAMHWGRQAPGKGLEWVAVISYDGSNKYYADSVKGRFTISRDNSKNTLYLQMNSLRAEDTAVYYCARDGGSGWLLVGNWFDPWGQGTLVTVSS
VL: B5 VL with E52D, S97I, P99L
Consider B6, for which the “median fluorescence, fold” value in test [1] was 8.9 fold over isotype; in test [2] it was 7.29 fold over isotype.

B7: mAb 896 (antibody, V domains shown)
VH: EVQLVESGGGVVQPGGSLRLSCAASGFTFDDYAMHWVRQVPGKGLEWVSLISGDGGSTYYADSVKGRFTISRDNSKNSLYVQMNSLRTEDTALYYCVKDRGGSGWDLNHYYYGMDVWGQGTTVTVSS
VL: DIQLTQSPSFLSASVGDRVTVTCRASQGISSYLAWYQQKPGKAPKLLIYAAYTLQSGVPSRFSGSGSETEFTLTISSLQPEDFATYYCQQVKSYPLTFGGGTKVEIKR
On to B7, for which the “median fluorescence intensity, fold over isotype control” value in test [6] worked out at 2.34 fold over isotype.

B8: antibody 272 (antibody, V domains shown)
VH: QVQLVQSGAEVKKPGASVKVSCKASGYTFTTYYMHWVRQAPGQGLEWMGIINPSGGSASYAQKFQGRVTMTRDTSTSTVYMELSSLRSEDTAVYYCARDHTLVNGDYEYYYGMDVWGQGTTVTVSS
VL: SYELTQPPSVSVSPGQTARITCSGDALPKQYAYWYQQKPGQAPVSVIYKDSERPSGIPERISGSSSGTTVTLTISGVQAEDEADYYCQSADSSGTYLVFGGGTKLTVL
For B8, the figures for the “bead binding signal (fold over isotype)” value in test [3], in test [4] and in test [5] were 1350 fold over isotype, 679 fold over isotype and 852 fold over isotype, respectively.
